Results of unrelated studies side by side (data: NIAID ChemDB).

All rows: enzyme or target tests; species: HIV-1; protein: Reverse transcriptase; method: ELISA; read-out: IC50

ICn is the concentration giving n% inhibition.

SMILES	result
CSc1ncc(C(=O)NC2CC2)c(Nc2ccc3cn[nH]c3c2)n1	~0.1 µg/mL
CCN1C(=O)c2ccnnc2Oc2c(C)cc(C)cc21	<330 µM
CSc1ncc(C(N)=O)c(Nc2ccc3[nH]ncc3c2)n1	~0.1 µg/mL
Cc1ccc(C2CCCCc3c2n(COCc2ccccc2)c(=O)[nH]c3=O)cc1	9.31 µM
COC(=O)C(C)CCC[C@H](C)[C@H](O)[C@@H](C)[C@@H](O)[C@@H](C)[C@H](O)[C@H](C)[C@H](CCO[C@@]1(C)Oc2c(C)c(O)c3c(c2C1=O)C(=O)C=C(N)C3=O)OC	>300 µM
CCCN1C(=O)c2ccnnc2Oc2ccc(OC)cc21	~330 µM
O=c1[nH]c(=O)n(Cc2ccccc2)c2c1CCCCC2c1ccccc1	101 µM
CN1CCN(c2nc3c(cc2F)c(=O)c(C(=O)O)cn3-c2cccc3ccccc23)CC1	>1 µg/mL
CSc1ncc(C(=O)NCCN2CCOCC2)c(Nc2ccc3[nH]ncc3c2)n1	~0.1 µg/mL
CN1CCN(c2nc3c(cc2F)c(=O)c(C(=O)O)cn3-c2ccc3ccccc3c2)CC1.CS(=O)(=O)O	>1 µg/mL
Cc1ccc2c(c1)N(CC(C)C)C(=O)c1ccnnc1O2	<330 µM
CS(=O)(=O)O.O=C(O)c1cn(-c2ccc3ccccc3c2)c2cc(N3CCNCC3)c(F)cc2c1=O	<1 µg/mL
CNC(=O)c1cnc(SC)nc1Nc1ccc2cn[nH]c2c1	~0.1 µg/mL
C[C@@H]1CN(c2nc3c(cc2F)c(=O)c(C(=O)O)cn3-c2cccc3ccccc23)C[C@H](C)N1	>1 µg/mL
COC(/C=C/[C@@H](C)[C@@H](OC(C)=O)[C@H](C)[C@H](OC(C)=O)[C@H](C)[C@@H](OC(C)=O)[C@@H](C)/C=C/C=C(/C)C(=O)NC1=CC(=O)c2c(c(O)c(C)c3oc(C)cc23)C1=O)OC	>300 µM
CC1CN(c2cc3c(cc2F)c(=O)c(C(=O)O)cn3-c2cccc3ccccc23)CCN1.CS(=O)(=O)O	>1 µg/mL
CCOC(=O)CN1C(=O)c2ccnnc2Oc2ccc(C)cc21	~330 µM
COC(=O)/C(C)=C\C=C\[C@H](C)[C@@H]1OCO[C@@H]([C@@H](C)[C@H](OC(C)=O)[C@H](C)[C@H](/C=C/O[C@@]2(C)Oc3c(C)c(O)c4c(c3C2=O)C(=O)C=C(N)C4=O)OC)[C@@H]1C	>300 µM
CS(=O)(=O)O.C[C@@H]1CN(c2cc3c(cc2F)c(=O)c(C(=O)O)cn3-c2ccc3ccccc3c2)C[C@H](C)N1	<1 µg/mL

For reference, 2 entries again:

SMILES	result
CCCN1C(=O)c2ccnnc2Oc2ccc(OC)cc21	~330 µM
COC(/C=C/[C@@H](C)[C@@H](OC(C)=O)[C@H](C)[C@H](OC(C)=O)[C@H](C)[C@@H](OC(C)=O)[C@@H](C)/C=C/C=C(/C)C(=O)NC1=CC(=O)c2c(c(O)c(C)c3oc(C)cc23)C1=O)OC	>300 µM

Conditions beyond the fields shown may differ between rows.